According to US20240390311A1 (priority 2020, published 2024):

Test system: SARS-CoV-2
Type: in vivo, K18-hACE2 mice
Details: Trial 2; GABA 0, 0.2 or 2.0 mg/mL groups compared

## NCCCC(=O)O [GABA, gamma-aminobutyric acid]
  amounts of water consumed: no statistically significant differences
  longitudinal body weights: no statistically significant differences
